Biological target: MUT PP1 (Y70W, L73Y, G274E and A299E) (Homo sapiens, UniProt P62136, A299E/G274E/L73Y/Y70W)
Experiment: Surface plasmon resonance, binding to MUT PP1

Protein sequences, listed by entry. Tags and fused reporters are not part of them. Residues count along the entry.
UniProt P62136, 7-300 Y70W/L73Y/G274E/A299E limits assumed: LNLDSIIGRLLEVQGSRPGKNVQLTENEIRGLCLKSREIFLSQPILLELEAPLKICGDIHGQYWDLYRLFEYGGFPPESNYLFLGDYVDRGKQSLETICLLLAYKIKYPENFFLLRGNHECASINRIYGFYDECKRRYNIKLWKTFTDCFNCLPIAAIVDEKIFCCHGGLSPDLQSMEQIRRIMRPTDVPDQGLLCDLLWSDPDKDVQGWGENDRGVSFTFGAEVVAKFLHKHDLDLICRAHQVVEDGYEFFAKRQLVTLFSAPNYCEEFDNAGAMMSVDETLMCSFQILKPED

COc1ccc(C=C2CCc3c2nc2ccccc2c3C(=O)OC(C)C(=O)NC2CC2)cc1OC (centres unmarked)
Rmax (MUT PP1, SPR): 15.51 RU
ka (MUT PP1, SPR): 921.2 M⁻¹ s⁻¹
kd (MUT PP1, SPR): 0.002171 s⁻¹
Kd (MUT PP1, SPR, 25°C, 1:1 binding model): 2360 nM
reduction of binding for mutant PP1 vs WT PP1 (from KD values): 3 fold

Reference: PMC6753193, “Targeting the Non-catalytic RVxF Site of Protein Phosphatase-1 With Small Molecules for Ebola Virus Inhibition” (Frontiers in Microbiology, 2019)
